# Experimental data: PubChem BioAssay AID624099 (ICCB-Longwood, 2012)
# Purpose: 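Human genes that papillomavirus E2 requires to repress the HPV18 LCR promoter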 (primary screen)
# Cell system: human C33A cervical carcinoma cells (HPV-negative) stably expressing BPV1 E2 and an HPV18 LCR luciferase reporter
# Knock-down reagent: siRNA pool against human genes, 40 nM
# Time to read-out: 72 h
# Measured: 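HPV18 LCR reporter light per well, converted to plate-wise z-scores that exclude control wells, and averaged over triplicate plates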
# Reading the numbers: mean z-score and z-score: higher = stronger reporter signal, weaker E2 silencing
# Active means: 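Hit if mean z-score reaches 2 and two or more of three replicate z-scores also reach 2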
# In all, the deposit lists about 21,000 reagents; below is an unselected part. Over the whole deposit, 497 (2.4%) got an active call. 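Higher z means weaker E2 silencing; only reporter increases were scored, and knock-downs that hurt cell survival may mask genuine repressor factors.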 Reagents against one gene are numbered here.
gene,reagent,mean z-score,"z-score, replicate A","z-score, replicate B","z-score, replicate C",activity call
SLC25A16 (GeneID 8034),1,0.34,0.46,0.43,0.14,inactive
C16orf54 (GeneID 283897),1,-1.88,-1.63,-1.79,-2.22,inactive
PKP4 (GeneID 8502),1,2.15,2.28,2.25,1.92,active
NEU3 (GeneID 10825),1,-0.14,-0.12,-0.32,0.03,inactive
LOC388429 (retired record) (GeneID 388429),1,0.21,0.36,-0.38,0.64,inactive
ASB10 (GeneID 136371),1,-0.36,-0.76,-0.2,-0.12,inactive
CIAO2A (GeneID 84191),1,-1.08,-1.19,-1.08,-0.96,inactive
P4HA1 (GeneID 5033),1,0.58,0.52,0.6,0.64,inactive
LINC02687 (GeneID 399886),1,1.29,1.58,1.24,1.04,inactive
PAK4 (GeneID 10298),1,0.3,-0.05,0.36,0.61,inactive
EIF4E2 (GeneID 9470),1,0.17,0.32,0.15,0.04,inactive
TMEM175 (GeneID 84286),1,1.11,1,1.3,1.05,inactive
KCNMB2 (GeneID 10242),1,0.33,0.53,0.38,0.08,inactive
MFGE8 (GeneID 4240),1,0.29,0.14,0.34,0.39,inactive
KIFC1 (GeneID 3833),1,1.21,1.26,1.18,1.2,inactive
HIBCH (GeneID 26275),1,1.14,1.14,0.89,1.4,inactive
NDUFB9 (GeneID 4715),1,-1.05,-0.98,-1.06,-1.12,inactive
CYP2C18 (GeneID 1562),1,0.38,0.55,0.61,-0.02,inactive
LOC340148 (retired record) (GeneID 340148),1,0.9,0.82,1.01,0.86,inactive
SPSB3 (GeneID 90864),1,-2.74,-2.38,-2.68,-3.14,inactive
SPATA19 (GeneID 219938),1,0.32,0.09,0.37,0.5,inactive
MAGEB4 (GeneID 4115),1,0.07,-0.34,0.16,0.4,inactive
TDRD1 (GeneID 56165),1,0.59,0.6,0.53,0.65,inactive
GDPD3 (GeneID 79153),1,0.83,0.44,0.94,1.1,inactive
BOK (GeneID 666),1,-0.49,-0.27,-0.7,-0.51,inactive
WT1-AS (GeneID 51352),1,-1.23,-0.99,-1.26,-1.43,inactive
OR5C1 (GeneID 392391),1,0.29,0.53,0.09,0.25,inactive
DLX6 (GeneID 1750),1,-0.59,-0.38,-0.75,-0.64,inactive
DLX6 (GeneID 1750),2,0.37,0.27,0.63,0.21,inactive
ASTE1 (GeneID 28990),1,0.18,-0.35,1.05,-0.16,inactive
NBPF14 (GeneID 25832),1,-1.14,-0.99,-1.23,-1.21,inactive
CSGALNACT2 (GeneID 55454),1,-0.14,0.1,-0.23,-0.3,inactive
PEA15 (GeneID 8682),1,1.24,1.26,1.24,1.23,inactive

Next part; the last 8 above are carried over.
gene,reagent,mean z-score,"z-score, replicate A","z-score, replicate B","z-score, replicate C",activity call
WT1-AS (GeneID 51352),1,-1.23,-0.99,-1.26,-1.43,inactive
OR5C1 (GeneID 392391),1,0.29,0.53,0.09,0.25,inactive
DLX6 (GeneID 1750),1,-0.59,-0.38,-0.75,-0.64,inactive
DLX6 (GeneID 1750),2,0.37,0.27,0.63,0.21,inactive
ASTE1 (GeneID 28990),1,0.18,-0.35,1.05,-0.16,inactive
NBPF14 (GeneID 25832),1,-1.14,-0.99,-1.23,-1.21,inactive
CSGALNACT2 (GeneID 55454),1,-0.14,0.1,-0.23,-0.3,inactive
PEA15 (GeneID 8682),1,1.24,1.26,1.24,1.23,inactive
NBPF12 (GeneID 149013),1,0.98,0.26,1.34,1.34,inactive
RAB17 (GeneID 64284),1,1.98,1.85,1.95,2.14,inactive
REXO6P (GeneID 158035),1,1.71,2.28,1.6,1.26,inactive
FLJ45478 (retired record) (GeneID 401534),1,-0.25,-0.23,-0.26,-0.27,inactive
CIMAP1C (GeneID 161753),1,0.07,0.53,-0.04,-0.28,inactive
ZNF585A (GeneID 199704),1,0.25,0.4,0.66,-0.29,inactive
LOC400751 (retired record) (GeneID 400751),1,0.15,0.34,0.51,-0.41,inactive
NUDT1 (GeneID 4521),1,1.85,2.32,1.57,1.65,inactive
CNTN6 (GeneID 27255),1,0.87,0.93,0.77,0.9,inactive
NOX1 (GeneID 27035),1,-0.93,-1.03,-1.16,-0.61,inactive
PHC2 (GeneID 1912),1,0.87,1.09,0.87,0.66,inactive
SPOP (GeneID 8405),1,-0.33,-0.43,-0.18,-0.4,inactive
LOC389958 (retired record) (GeneID 389958),1,2.91,2.89,3.31,2.52,active
SIMC1 (GeneID 375484),1,0.09,0.05,0.06,0.16,inactive
HMGCS1 (GeneID 3157),1,-1.04,-1.19,-1.07,-0.87,inactive
ADAM15 (GeneID 8751),1,-0.65,-0.43,-0.85,-0.67,inactive
CCNQ (GeneID 92002),1,-0.44,-0.22,-0.74,-0.36,inactive
DOK6 (GeneID 220164),1,1.09,1.17,1.22,0.89,inactive
SLC61A1 (GeneID 84975),1,-1.66,-1.8,-1.56,-1.63,inactive
SLC7A8 (GeneID 23428),1,-0.17,-0.15,-0.21,-0.17,inactive
ZFAND4 (GeneID 93550),1,-0.61,-0.42,-0.59,-0.82,inactive
LRRC66 (GeneID 339977),1,-1.4,-1.16,-1.49,-1.55,inactive
TEFM (GeneID 79736),1,0,0.15,-0.21,0.07,inactive
LOC100505502 (GeneID 100505502),1,0.08,0.09,0.4,-0.26,inactive
